Measured values from several laboratories, pooled; numbers as filed in NIAID ChemDB.

Shared fields: tests in culture; agent: Hepatitis C virus; cells: Huh7; read by: replicon; read-out: EC50

Neighbouring rows are from separate reports.

structure | result
O=C(O)c1ccc2c(C3CCCCC3)c3n(c2c1)CCCc1nccnc1-3 | 1–10 µM
CNC(=O)c1c(-c2ccc(F)cc2)oc2cc(NS(C)(=O)=O)c(-c3c(C)noc3C)cc12 | <10 µM
O=C(Nc1ccc(C2SC(=Nc3ccc(N4CCOCC4)cc3)N(Cc3ccccn3)C2=O)cc1)[C@H]1CCCN1C(=O)C1(c2ccccc2)CC1 | <0.1 µM
CCN(c1cc2oc(-c3ccc(F)cc3)c(C(=O)NC)c2cc1OC)S(C)(=O)=O | <1 µM
CN(c1ccccc1/C=N/NC(=O)Cc1cccc(Cl)c1)S(=O)(=O)c1ccc(C(F)(F)F)cc1 | <5 µM
O=C(OCc1ccccc1)[C@@H]1CCCN1C(=O)Nc1ccc(C2SC(=Nc3cccc(F)c3)N(Cc3ccoc3)C2=O)cc1 | >5 µM
O=C(Cc1ccccn1)N/N=C/c1ccccc1OS(=O)(=O)c1ccc(C(F)(F)F)cc1 | <5 µM
CCS(=O)(=O)NC(=O)c1ccc2c(C3CCCCC3)c3n(c2c1)CC(C(=O)N1CCOCC1)=Cc1ccccc1-3 | 0.01–1 µM
O=C(N/N=C/c1ccccc1OS(=O)(=O)c1ccc(C(F)(F)F)cc1)c1cnccc1C(F)(F)F | 5–50 µM
O=C(O)/C=C/c1ccc(NC(=O)C2(NC(=O)c3ccc4c(C5CCCCC5)c5n(c4c3)CCCc3ccccc3-5)CCCC2)cc1 | 0.01–1 µM
CNC(=O)c1c(-c2ccco2)oc2ccc(OC)cc12 | <30 µM
COC(=O)c1ccc2c(C3CCCCC3)c3n(c2c1)CC(C(=O)O)=C(C)c1ccncc1-3 | 1–10 µM
CNC(=O)c1c(-c2ccc(F)cc2)oc2cc(-c3cc(CO)on3)c(OC)cc12 | <1 µM
CC(C)N=C1SC(c2ccc(NC(=O)[C@@H](C)NC(=O)C(c3ccccc3)c3ccccc3)cc2)C(=O)N1Cc1ccccn1 | <0.1 µM
CNC(=O)c1c(-c2ccc(F)cc2)oc2cc(N(Cc3cc(C)on3)S(C)(=O)=O)c(OC(C)C)cc12 | <1 µM
CCOC(=O)c1cc2cc(NC(=O)C3(NC(=O)c4ccc5c(C6CCCCC6)c6n(c5c4)CC(C(=O)NCCN(C)C)Nc4nccnc4-6)CCCC3)ccc2n1C | 0.01–1 µM
COc1cccc(CC(=O)N/N=C/c2ccccc2OCc2ccc(C)cc2)c1 | >50 µM
CN(C)S(=O)(=O)NC(=O)c1ccc2c(C3CCCCC3)c3n(c2c1)CC(C(=O)N1CCN(c2ccncc2)CC1)=Cc1ccccc1-3 | 0.01–1 µM
CC(C)NC(=O)c1c(-c2ccc(F)cc2)oc2cc(NS(C)(=O)=O)c(OC(C)C)cc12 | <10 µM
C[C@@H](NC(=O)OCc1ccccc1)C(=O)Nc1ccc(C2SC(=Nc3cccc(F)c3)N(CCc3ccc(F)c(F)c3F)C2=O)cc1 | 1–5 µM
CNC(=O)c1c(-c2ccc(F)cc2)oc2cc(Br)c(OC(C)C)cc12 | <1 µM
O=C(Cc1ccccc1)N/N=C/c1ccccc1OS(=O)(=O)c1ccccc1 | >50 µM

Again, the opening 3 rows:

O=C(O)c1ccc2c(C3CCCCC3)c3n(c2c1)CCCc1nccnc1-3 ; result: 1–10 µM
CNC(=O)c1c(-c2ccc(F)cc2)oc2cc(NS(C)(=O)=O)c(-c3c(C)noc3C)cc12 ; result: <10 µM
O=C(Nc1ccc(C2SC(=Nc3ccc(N4CCOCC4)cc3)N(Cc3ccccn3)C2=O)cc1)[C@H]1CCCN1C(=O)C1(c2ccccc2)CC1 ; result: <0.1 µM

ECn: concentration that inhibits the pathogen or its effect by n%. Two numbers with a dash give a range or band.